The values below come from publication PMC11879855, “Structural insights into tecovirimat antiviral activity and poxvirus resistance” (2025).

The test system of assay [1] is MPXV clade IIb strain MPXV/2022/FR/CMIP. The assay is described as follows: MPXV plaque inhibition (neutralization) assay in Vero cells. Conditions: ratio of IC50 values.
The test system of another assay is rVACV^WT. Conditions: rVACV WT on BSC40 cells with tecovirimat; individual plaques, two replicate columns (Panel C right).

For `O=C(NN1C(=O)[C@@H]2[C@@H]3C=C[C@@H]([C@H]4C[C@@H]34)[C@@H]2C1=O)c1ccc(C(F)(F)F)cc1`, the “antiviral activity, times better than IMCBH” value in assay [1] is on record as 5. In addition, the “plaque size, WT + Tecovirimat” value with rVACV^WT is listed as 0.
